Measured values from several laboratories, pooled; numbers as filed in NIAID ChemDB.

Shared fields: growth or infection tests; organism: HIV-1; read by: cytopathic effect / MTT; read-out: fold resistance

Blank or dashed fields: not listed here. Fold resistance has wild type as its base. Rows are shuffled and stem from different studies.

compound,cells,changes,strain or isolate,value
CCOCn1c(CC2CCCc3ccccc32)c(CC)c(=O)[nH]c1=O,MT-4,RT-Y181C,N119 RT-Y181C NNRTI-resistant,>25
C=CCOCn1c(Cc2cc(Cl)cc(Cl)c2)c(CC)c(=O)[nH]c1=O,MT-4,RT-K103N Y181C,NNRTI-resistant (RT K103N Y181C) A17,100
Cc1c(C(=O)N[C@@H](Cc2ccccc2)[C@H](O)CN(CC(C)C)S(=O)(=O)c2ccc3nc(N)oc3c2)ccc2ncoc12,MT-4,PR-L010F M046I M071V I084V,LAI,28
CCOCn1c(Cc2ccccc2)c(C(C)C)c(=O)[nH]c1=O,MT-4,RT-Y181C,NNRTI-resistant,666.7
Cc1cc(C)cc(S(=O)(=O)c2c(C(=O)/C=C/C(N)=O)[nH]c3ccc(Cl)cc23)c1,MT-4,RT-Y181C,-,10
Cc1cc(C)c(Oc2nc(Nc3ccc(C#N)cc3)c(=O)n(C)c2C)c(C)c1,MT-4,RT-Y181C,-,100.2
COC(=O)Nc1nc2ccc(S(=O)(=O)N(CC(C)C)C[C@@H](O)[C@H](Cc3ccccc3)NC(=O)OC3COC4OCCC34)cc2[nH]1,MT-4,PR-L10F M46I M71V I84V,R13080,1.3
C=C(c1cc(C)cc(C)c1)c1c(CC)c(=O)[nH]c(=O)n1COC/C(C)=C/c1ccccc1,MT-4,RT-K103N Y181C,IIIB,3330
CCOCn1c(Cc2cccc(Cc3c(CC)c(=O)[nH]c(=O)n3COCC)c2)c(CC)c(=O)[nH]c1=O,MT-4,RT-Y181C,NNRTI-resistant,>7.1
Cc1cc(C#N)cc(C)c1Oc1nc(Nc2ccc(C#N)cc2)c(=O)n(C)c1C,MT-4,RT-Y188L,-,1
CCc1c(C)[nH]c(=O)c(CC)c1Oc1cc(C)cc(C)c1,MT-4,RT-Y181C,-,13
Cc1ccccc1S(=O)(=O)c1c(C(N)=O)[nH]c2ccc(Cl)cc12,C8166,RT-K103R V179D P225H,Efavirenz-resistant (RT K103R V179D P225H),520
COc1cccc(Nn2c(-c3ccccc3)c(C)[nH]c2=S)c1,MT-4,RT-K103N Y181C,SO561945 (RT K103N Y181C),<3.88
CCc1c(Cc2cc(Cl)cc(Cl)c2)n(COC/C(C)=C/c2ccccc2)c(=O)[nH]c1=O,MT-4,RT-K103N Y181C,NNRTI-resistant (RT K103N Y181C) A17,>333
CCn1c(C)c(C(=O)OC)c(C(=O)OC)c1Cc1ccccc1,MT-4,RT-D67N K70R T215Y K219Q,G910-6 (RT D67N K70R T215Y K219Q),2.125
N#Cc1ccc(Nc2nc(N)nc(Oc3c(Cl)cc(Cl)cc3Cl)n2)cc1,MT-4,RT-Y188L,-,0.4962
COc1ccc(/C=C/CSc2nc(Cc3c(F)cccc3F)c(C)c(=O)[nH]2)cc1,MT-4,RT-Y181C,NNRTI-resistant,>9139
Cn1c2ccccc2c2c1cc(C#N)c(=O)n2-c1ccc([N+](=O)[O-])cc1,MT-4,RT-L100I K103N,D,2
CSCSc1nc(Cc2c(F)cccc2F)c(C)c(=O)[nH]1,MT-4,RT-Y181C,IIIB,200
C#CCOCn1c(C(=C)c2cc(C)cc(C)c2)c(CC)c(=O)[nH]c1=O,MT-4,RT-K103N Y181C,IIIB,767
C=Cc1cc(N(CC)CC)nc(SCc2ccc(OC)cc2)n1,MT-4,RT-K103N,NNRTI-resistant,<0.115
CCc1c(C)[nH]c(=O)c(SCCC(N)=O)c1Oc1cc(C)cc(C)c1,MT-4,RT-K103N,-,25
Cc1[nH]c(=S)n(Nc2cccc(Cl)c2)c1-c1cccc(C#N)c1,MT-4,RT-K103N Y181C,SO561945 (RT K103N Y181C),<2.37
Cc1cc(C)cc(S(=O)(=O)c2c(C(N)=O)[nH]c3c(Cl)cc(Cl)cc23)c1,C8166,RT-K103R,-,>83
CCc1c(C)[nH]c(=O)c(OC)c1Oc1cc(C)cc(C)c1,MT-4,RT-Y181C,-,63
Cc1c(C(=O)N[C@@H](Cc2ccccc2)[C@H](O)CN(CC(C)C)S(=O)(=O)c2ccc3nc(N)oc3c2)ccc(N)c1O,MT-4,PR-L010F M046I M071V I084V,LAI,0.98
CCOCn1c(Cc2ccccc2)c(C(C)C)c(=O)[nH]c1=O,MT-4,RT-Y181C,IIIB,2200
CCc1c(C)[nH]c(=O)c(Sc2ccccc2)c1Oc1cc(C)cc(C)c1,MT-4,RT-L100I,-,13
Cc1cc(C)cc(S(=O)(=O)c2c(C(=O)NCCO)[nH]c3ccc(Cl)cc23)c1,MT-4,RT-K103N Y181C,-,500
CNc1nc2ccc(S(=O)(=O)N(CC(C)C)C[C@@H](O)[C@H](Cc3ccccc3)NC(=O)c3cccc(O)c3C)cc2o1,MT-4,PR-L010F M046I M071V I084V,LAI,224
C=C(c1cc(C)cc(C)c1)c1c(CC)c(=O)[nH]c(=O)n1COCC,MT-4,RT-K103N Y181C,IIIB,828.6
CSCSc1nc(Cc2c(F)cccc2F)cc(=O)[nH]1,MT-4,RT-Y181C,IIIB,67.5
C=C(c1cc(C)cc(C)c1)c1c(CC)c(=O)[nH]c(=O)n1COC/C=C/c1ccccc1,MT-4,RT-Y181C,IIIB,3330
CCc1c(Cc2cccc(Cc3nc(SC)nc(OC)c3CC)c2)nc(SC)nc1OC,MT-4,RT-K103N Y181C,RT-K103N+Y181C NNRTI-resistant,>2.4
Cc1ccc(S(=O)(=O)c2c(C(N)=O)[nH]c3ccc(Cl)cc23)c(C)c1,C8166,RT-K103R V179D P225H,Efavirenz-resistant (RT K103R V179D P225H),530
Cc1ncn(Nc2cccc(Cl)c2)c1-c1cccc(C#N)c1,MT-4,RT-K103N Y181C,SO561945 (RT K103N Y181C),2.53
Cc1ccc(Oc2cn(C)c(=O)c(Nc3ccc(F)cc3)n2)c(C)c1,MT-4,RT-K103N,-,>7.95
CCOCn1c(Cc2ccccc2)c(C(C)C)c(=O)[nH]c1=O,MT-4,RT-Y181C,N119 RT-Y181C NNRTI-resistant,2200
CCc1c(Cc2cccc(Cc3nc(SC(C)C)[nH]c(=O)c3CC)c2)nc(SC(C)C)[nH]c1=O,MT-4,RT-Y181C,NNRTI-resistant,>2.5
Cc1cc(N)c(N)c(C)c1OCC(=O)N[C@@H](Cc1ccccc1)[C@H](O)CN(CC(C)C)S(=O)(=O)c1ccc2nc(N)oc2c1,MT-4,PR-L010F M046I M071V I084V,LAI,8.9
Cc1ccc(Nn2c(-c3ccccc3)c(C)[nH]c2=S)cc1Cl,MT-4,RT-K103N Y181C,SO561945 (RT K103N Y181C),<4.08
C=C(C)COCn1c(Cc2cc(Cl)cc(Cl)c2)c(CC)c(=O)[nH]c1=O,MT-4,RT-Y181C,NNRTI-resistant (RT Y181C) N119,>83
C=CCOCn1c(Cc2cccc(Cc3c(CC)c(=O)[nH]c(=O)n3COCC=C)c2)c(CC)c(=O)[nH]c1=O,MT-4,RT-Y181C,NNRTI-resistant,>2.9
CCOCn1c(Cc2ccccc2)c(C(C)C)c(=O)[nH]c1=O,MT-4,RT-Y181C,NNRTI-resistant (RT Y181C) N119,2200
N#Cc1cc2[nH]c3ccccc3c2n(-c2ccc([N+](=O)[O-])cc2)c1=O,MT-4,RT-K101E K103N,I,3
S=c1[nH]c(-c2ccccc2)c(-c2ccccc2)n1Nc1cccc(Cl)c1,MT-4,RT-K103N Y181C,SO561945 (RT K103N Y181C),<1
CCc1c(Cc2cc(Cl)cc(Cl)c2)n(COC2CCc3ccccc32)c(=O)[nH]c1=O,MT-4,RT-Y181C,NNRTI-resistant (RT Y181C) N119,6